According to patent publication US6355238B1, “Specific immune system modulation” (Yale University, priority 1992, dated 2002):

Test system: HIV peptide T
Experiment: Covalent photobinding of 8-MOP to HIV peptide T
Assay type: binding
Details: peptide 0.4 mg/ml, 8-MOP 0.04 mg/ml

SMILES: COc1c2occc2cc2ccc(=O)oc12 [8-MOP, 8-methoxypsoralen]
- 8-MOP adducts/HIV peptide (15 min UVA exposure (3.5 mW/cm^2)): 0.028 8-MOP adducts/HIV peptide
- 8-MOP adducts/HIV peptide (30 min UVA exposure (3.5 mW/cm^2)): 0.041 8-MOP adducts/HIV peptide
